{"source": "patent US20030203410A1", "about": "“Gestational agents which modulate cell proliferation” (priority 1999, published 2003)", "key": {"Herpes Simplex Type I": {"test_system": "Herpes Simplex Type I", "assay": "Inhibition of viral cytopathic effect (visual CPE and neutral red), HSV-1 in MRC-5 cells", "format": "cell-based, type 1 herpes (HSV-1)"}, "Vaccinia Virus": {"test_system": "Vaccinia Virus", "format": "cell-based", "details": "SI = CC50/EC50"}, "San Angelo Virus": {"test_system": "San Angelo Virus", "format": "cell-based"}}, "note": "Where “and” joins values, the source holds several entries; their conditions need not be identical. Equal entries are not always repeated. Where two headings read alike, the source gives them in different places.", "data": [{"smiles": "Nc1nc2c(ncn2COCCO)c(=O)[nH]1", "note": "[Acyclovir, acyclovir]", "values": [{"measurement": "SI", "setting": "Herpes Simplex Type I", "value": ">167 and >250"}]}, {"smiles": "Nc1ccn(C[C@@H](CO)OCP(=O)(O)O)c(=O)n1", "note": "[HPMPC, cidofovir]", "values": [{"measurement": "SI", "setting": "Vaccinia Virus; neutral red assay", "value": ">59"}, {"measurement": "SI", "setting": "Vaccinia Virus; visual", "value": ">18"}]}, {"smiles": "NC(=O)c1ncn([C@@H]2O[C@H](CO)[C@@H](O)[C@H]2O)n1", "note": "[Ribavirin, ribavirin]", "values": [{"measurement": "SI", "setting": "San Angelo Virus", "value": "19 and 18"}]}]}
